The structures appear in SMILES notation.

This data set concerns Campylobacter jejuni DSM 4688. As to the kind of experiment: Detection of hippuricase activity with 4-HHA, 4-aminoantipyrine and oxidizing reagent (color / absorbance at 505 nm). The data set is classed as cell-based. The protocol:
Campylobacter jejuni DSM 4688 (C. j., catalase positive), Eschericha coli (E. coli, catalase positive) and Campylobacter coli DSM 4689 (C. c., catalase positive), Streptococcus agalactiae ATCC®12386 (S. a., catalase negative) and Streptococcus pyogenes ATCC®19615 (S. p., catalase negative) were cultivated on Columbia Agar with sheep blood (Thermofischer PB5039A) at 37° C. for 48 h, both Campylobacter strains were cultivated under microaerophilic atmosphere (Oxoid, Campylgen CN0025A).
Biomass of colonies were suspended in sterile phosphate buffer (100 mM, pH 7.4) and the optical density OD was determined and set to OD600 of 0.9.
Two hundred μL of cell suspensions were mixed with 25 μL of 4-hydroxyhippuric acid (4-HHA, Bachem, 4005059) stock solution, prepared in 100 mM phosphate buffer pH adjusted to 7.4 in a microtiter plate (SpektraMax M5, Molecular Devices) and incubated for 70 minutes at 37° C. After incubation, 20 μL of a prepared mixture (12.5×) 4-aminoantipyrine (4-AAP, Merck 06800) and peroxidase (HRP, Merck 77332) and 5 μL of 100 mM H2O2 were added. The absorbance at 505 nm was recorded with a plate reader at room temperature. Final concentrations for the assay were 5 mM, 10 mM and 20 mM 4-HHA, 0.5 mM 4-AAP, 4.5 U/mL HRP and 2 mM H2O2.
Biomass of colonies were suspended in sterile 100 mM phosphate buffer pH 7.4 and the optical density OD600 was set to 0.9 and then serially diluted with the same buffer to an OD600 of 0.5, 0.2 and 0.1.
Two hundred μL of cell suspensions were mixed with 25 μL of 100 mM 4-hydroxyhippuric acid (4-HHA, Bachem 4005059) prepared in 100 mM phosphate buffer pH adjusted to 7.4) in a microtiter plate and incubated for 1 h at 37° C. […] The absorbance at 505 nm was recorded with a plate reader (SpektraMax M5, Molecular Devices) at room temperature. […]
Two hundred μL of cell suspension were mixed with 25 μL of 100 mM 4-hydroxyhippuric acid (4-HHA, Bachem 4005059, dissolved in 100 mM phosphate puffer pH 7.4) in microtiter plate and incubated for 1 h at 37° C. […] The absorbance at 505 nm was recorded with a plate reader. […]

`O=C(O)CNC(=O)c1ccc(O)cc1` [4-HHA, p-hydroxyhippuric acid]: the “final concentration of 4-HHA with the best performance” value (Example 1, 5, 10 and 20 mM tested, HRP/H2O2) is listed as 10 mM. The “OD600 value at which red/pink color was even visible by eye” value (Example 2, HRP/H2O2, corresponds to about 2×10^6 CFU/mL) came out at 0.1. In addition, under “Example 3, HRP/glucose/GOD, corresponds to about 2×10^6 CFU/mL”, the “OD600 value at which red color was even visible by eye” value is reported as 0.1.

The record behind these values is US20250236901A1, “METHOD OF DETECTING A MICROORGANISM HAVING HIPPURICASE ACTIVITY” (BIOSYNTH AG, priority 2022, published 2025).
